Compound potency records, mixed from different reports. Data source: NIAID ChemDB in PubChem.

All rows: growth or infection tests; agent: HIV-1; read-out: EC50

Rows are shuffled and stem from different studies.

compound | changes | cells | strain or isolate | read by | value
O=c1ccn([C@H]2C[C@H](CO)[C@@H](CO)O2)c(=O)[nH]1 |  | MT-4 |  | MTT | >100 µM
CC(=O)OC[C@H]1O[C@@H](SCCOP(=O)(O)OC[C@H]2O[C@@H](n3cc(C)c(=O)[nH]c3=O)C[C@@H]2N=[N+]=[N-])[C@H](OC(C)=O)[C@@H](OC(C)=O)[C@@H]1OC(C)=O |  | PBMC | BaL | RT activity | 0.01 µM
Cc1occc1C(=S)Nc1ccc(Cl)c(C(=O)OC(C)C)c1 | RT-D67N K70R L100I T215Y K219Q | CEM + CEM-SS | 4xAZT/L100I(RT-D67N K70R T215Y K219Q L100I) | cytopathic effect / XTT | 0.9 µM
CC(=O)OC1[C@]2(C)[C@H]3CC(C)(C)C(=O)[C@@H]3C[C@@]1(OC(C)=O)[C@H](OC(=O)CO)[C@H]1[C@@H](OC(=O)c3ccccc3)[C@@H](C)C[C@]1(O)[C@@H]2OC(C)=O |  | MT-4 | IIIB | cytopathic effect / MTT | >100 µg/mL
Cc1cccc(C(=O)NC(C)(C)C(=O)NC[C@H](O)[C@@]23CC[C@]4(C)[C@H](CC[C@@H]5[C@@]6(C)CC[C@H](OC(=O)[C@H]7C[C@@H](C(=O)O)C7(C)C)C(C)(C)[C@@H]6CC[C@]54C)C2=C(C(C)C)C(=O)C3)n1 |  | MT-2 | 92HT599 | p24 / ELISA | <1 µM
Cc1cn([C@@H]2O[C@H](CO)C[C@@H]2F)c(=O)[nH]c1=O |  | MT-4 | IIIB |  | >500 µM
O=c1[nH]c(=O)n([C@H]2C[C@H](CO)[C@@H](CO)O2)cc1I |  | MT-4 |  | MTT | >100 µM
Cc1cn([C@H]2C[C@H](N=[N+]=[N-])[C@@H](COP(=O)(O)OCCS[C@@H]3O[C@H](CO)[C@@H](O)[C@H](O)[C@H]3O)O2)c(=O)[nH]c1=O |  | MM + M/M | LAI | RT activity | 0.5 µM
Cc1cc(CNC[C@H](O)[C@@]23CC[C@]4(C)[C@H](CC[C@@H]5[C@@]6(C)CC[C@H](OC(=O)[C@H]7C[C@@H](C(=O)O)C7(C)C)C(C)(C)[C@@H]6CC[C@]54C)C2=C(C(C)C)C(=O)C3)c(C)o1 |  | MT-2 | 92HT599 | p24 / ELISA | <1 µM
Cc1cn([C@H]2C[C@H](N=[N+]=[N-])[C@@H](COP(=O)(OCCSC(=O)C(C)(C)C)OCCSC(=O)C(C)(C)C)O2)c(=O)[nH]c1=O |  | CEM + CEM-SS | LAI | RT activity | 0.015 µM
CC=CCOc1cc(NC(=S)c2ccoc2C)ccc1OC |  | CEM + CEM-SS | NL4-3 | cytopathic effect / XTT | 0.03 µM
CC(=O)O[C@@H]1[C@H]2[C@@H](OC(=O)c3ccccc3)[C@@H](C)C[C@]2(O)[C@H](OC(C)=O)[C@@]2(C)[C@@H]3CC(C)(C)C(=O)[C@]3(OC(C)=O)C[C@@]12C |  | MT-4 | IIIB | cytopathic effect / MTT | 14 µg/mL
O=c1ccn([C@@H]2O[C@H](CO)[C@@H](CO)[C@@H]2O)c(=O)[nH]1 |  | MT-4 |  | MTT | >100 µM
[2H]C(CO)(CNC(=O)C[C@@]12CC[C@]3(C)[C@H](CC[C@@H]4[C@@]5(C)CC[C@H](OC(=O)[C@H]6C[C@@H](C(=O)O)C6(C)C)C(C)(C)[C@@H]5CC[C@]43C)C1=C(C(C)C)C(=O)C2)NC(=O)c1ccc(Cl)cc1 |  | MT-2 | 92HT599 | p24 / ELISA | <1 µM
O=c1[nH]c(=O)n([C@@H]2O[C@H](CO)[C@H](CO)[C@@H]2O)cc1I |  | MT-4 |  | MTT | >100 µM
Cc1nc(C)c(C(=O)NC(C)(C)C(=O)NC[C@H](O)[C@@]23CC[C@]4(C)[C@H](CC[C@@H]5[C@@]6(C)CC[C@H](OC(=O)[C@H]7C[C@@H](C(=O)O)C7(C)C)C(C)(C)[C@@H]6CC[C@]54C)C2=C(C(C)C)C(=O)C3)s1 |  | MT-2 | 92HT599 | p24 / ELISA | <1 µM
Cc1occc1C(=S)Nc1ccc(Cl)c(/C=N/OC(C)(C)C)c1 | RT-V179D | CEM + CEM-SS | NL4-3 | cytopathic effect / XTT | 0.73 µM
CC(C)C1=C2[C@H]3CC[C@@H]4[C@@]5(C)CC[C@H](OC(=O)[C@H]6C[C@@H](C(=O)O)C6(C)C)C(C)(C)[C@@H]5CC[C@@]4(C)[C@]3(C)CC[C@@]2(CCNCC(C)(C)NC(=O)c2ccc(N3CCC(O)CC3)cc2)CC1=O |  | MT-2 | 92HT599 | p24 / ELISA | <1 µM
C=CCO/N=C/c1cc(NC(=S)c2ccoc2C)ccc1Cl | RT-V106A | CEM + CEM-SS | NL4-3 | cytopathic effect / XTT | 0.8 µM
CN1CSC([C@H]2[C@H](O)[C@H](n3ccc(=O)[nH]c3=O)O[C@@H]2CO)SC1 |  | MT-4 |  | MTT | >100 µM
CC(C)C1=C2[C@H]3CC[C@@H]4[C@@]5(C)CC[C@H](OC(=O)[C@H]6C[C@@H](C(=O)O)C6(C)C)C(C)(C)[C@@H]5CC[C@@]4(C)[C@]3(C)CC[C@@]2([C@@H](O)CNC[C@@H](NC(=O)c2ccc(Cl)cc2)C(C)O)CC1=O |  | MT-2 | 92HT599 | p24 / ELISA | <1 µM
CC1(C)CC=C(c2cn(-c3nccc(C(=O)NC4CCC(N5CC6CCC(C5)O6)CC4)n3)c3ccc(F)c([C@H](OC(C)(C)C)C(=O)O)c23)CC1 | E92Q/N155H | MT-4 | NL4-3 | luminescence | 0.0025 µM
Nc1ccn([C@@H]2O[C@H](CO)[C@@H](F)[C@@H]2F)c(=O)n1 |  | MT-4 | IIIB |  | >500 µM
CC(=O)OC1[C@]2(C)[C@@H]3[C@@H](C[C@@]1(OC(C)=O)[C@H](OC(C)=O)[C@H]1[C@@H](OC(=O)c4ccccc4)[C@@H](C)C[C@]1(O)[C@@H]2OC(C)=O)C(=O)C(C)(C)[C@H]3OC(C)=O |  | MT-4 | IIIB | cytopathic effect / MTT | >100 µg/mL
CC1=C(C(=S)Nc2ccc(Cl)c(C(=O)OC(C)C)c2)SCCO1 |  | CEM + CEM-SS | RF | cytopathic effect / XTT | 0.024 µM
COC(=O)/C=C/c1cn([C@@H]2O[C@H](CO)[C@@H](CO)[C@@H]2O)c(=O)[nH]c1=O |  | MT-4 |  | MTT | >100 µM
Cc1cn([C@H]2C=C(F)[C@@H](CO)O2)c(=O)[nH]c1=O |  | MT-4 | IIIB |  | 10–50 µM
Cc1occc1C(=S)Nc1ccc(Cl)c(C(=O)OCC2CC2)c1 | RT-K101E | CEM + CEM-SS | NL4-3 | cytopathic effect / XTT | 0.9 µM
CC1=C(C(=O)Nc2ccc(Cl)c(C(=O)OC(C)C)c2)SCCO1 |  | CBMC | IIIB | syncytia | 1 µM
Cc1nc2ccccc2c(-c2cc(F)c3c(c2C)CCCO3)c1[C@H](OC(C)(C)C)C(=O)O | T124S | MT-4 | NL4-3 | luminescence | 0.015 µM
O=c1[nH]c(=O)n([C@@H]2O[C@H](CO)[C@@H](CO)[C@@H]2O)cc1/C=C/Br |  | MT-4 |  | MTT | >100 µM
Cc1cn([C@H]2C[C@H](F)[C@@H](CO)O2)c(=O)[nH]c1=O |  | H9 | IIIB | p24 | 0.003 µM
COc1ccccc1C(=O)Nc1ccc(Cl)c(C(=O)OC(C)C)c1 |  | CEM + CEM-SS | RF | cytopathic effect / XTT | 1.3 µM

Again, the opening 2 rows:

| compound | changes | cells | strain or isolate | read by | value |
|---|---|---|---|---|---|
| O=c1ccn([C@H]2C[C@H](CO)[C@@H](CO)O2)c(=O)[nH]1 |  | MT-4 |  | MTT | >100 µM |
| CC(=O)OC[C@H]1O[C@@H](SCCOP(=O)(O)OC[C@H]2O[C@@H](n3cc(C)c(=O)[nH]c3=O)C[C@@H]2N=[N+]=[N-])[C@H](OC(C)=O)[C@@H](OC(C)=O)[C@@H]1OC(C)=O |  | PBMC | BaL | RT activity | 0.01 µM |

An empty or dashed field is not shown. ECn: concentration that inhibits the pathogen or its effect by n%. a–b is a range or a potency band.